Pooled drug test results. Numbers come from NIAID ChemDB, via PubChem.

Common to all: growth or infection tests; agent: HIV-1; method: cytopathic effect / MTT; measure: EC50

An empty or dashed field is not shown.

{"structure": "CC(C)=CCN1Cc2cc(Cl)cc3[nH]c(=S)n(c23)C[C@@H]1C", "cells": "CEM + CEM-SS", "strain": "205", "result": "0.205 µM"}
{"structure": "Cc1cn([C@H]2C[C@H](N=[N+]=[N-])[C@@H](CO)O2)c(=O)[nH]c1=O", "cells": "MT-4", "strain": "IIIB", "result": "0.033 µg/mL"}
{"structure": "COC(=O)CNC(=O)[C@H](CCSC)NC(=O)COc1ccc2ccccc2c1", "cells": "MT-4", "strain": "IIIB", "result": ">100 µg/mL"}
{"structure": "C[C@H](NC(=O)[C@@H](O)[C@H](O)C(=O)N[C@@H](C)c1ccccc1)c1ccccc1", "cells": "PM1", "strain": "Z2Z6", "result": ">100 µM"}
{"structure": "COC(=O)[C@H](CO)NC(=O)CNC(=O)COc1ccc2ccccc2c1", "cells": "MT-4", "strain": "IIIB", "result": ">58 µg/mL"}
{"structure": "C1CNCCNCC(CCC2CNCCNCCCNCCNC2)CNCCNC1", "cells": "MT-4", "conditions": "4 d", "strain": "RF", "result": "0.72 µM"}
{"structure": "CCCc1cc(=O)oc2c(C(=O)C(C)C(C)(C)O)c(O)c3c(c12)OC(C)(C)C=C3", "cells": "CEM + CEM-SS", "strain": "IIIB", "result": ">27.1 µM"}
{"structure": "CCOC(=O)[C@H](Cc1ccccc1)NC(=O)[C@@H](OC(C)=O)[C@H](OC(C)=O)C(=O)N[C@@H](Cc1ccccc1)C(=O)OCC", "cells": "PM1", "strain": "Z2Z6", "result": "50 µM"}
{"structure": "C=CCN1Cc2cccc3[nH]c(=O)n(c23)C[C@H]1C", "cells": "MT-4", "strain": "IIIB", "result": ">500 µM"}
{"structure": "COC(=O)[C@H](CCSC)NC(=O)[C@H](C)NC(=O)COc1ccc2ccccc2c1", "cells": "MT-4", "strain": "IIIB", "result": ">48 µg/mL"}
{"structure": "CCCc1cc(=O)oc2c3c(c4c(c12)OC(C)(C)C=C4)OC(C)(C)[C@H](C)C3=O", "cells": "CEM + CEM-SS", "strain": "IIIB", "result": ">21 µM"}
{"structure": "CC(C)(C)NC(=O)[C@@H]1C[C@@H]2CCCC[C@@H]2CN1C[C@@H](O)[C@H](Cc1ccccc1)NC(=O)[C@H](CC(N)=O)NC(=O)c1ccc2ccccc2n1", "cells": "MT-2", "strain": "LAV/LAI", "result": "0.015 µM"}
{"structure": "Cc1c(C(C)c2c(F)cccc2F)nc(SC2CCCC2)[nH]c1=O", "cells": "MT-4", "strain": "IIIB", "result": "0.005 µM"}
{"structure": "COC(=O)[C@H](CCSC)NC(=O)CNC(=O)COc1ccc2ccccc2c1", "cells": "MT-4", "strain": "IIIB", "result": ">100 µg/mL"}
{"structure": "CCCN(C)C(=O)Oc1nsnc1-c1c(Cl)ccc(OCOC)c1Cl", "cells": "MT-4", "strain": "IIIB", "result": "0.067 µM"}
{"structure": "Cc1cn([C@H]2C[C@H](N=[N+]=[N-])[C@@H](CO)O2)c(=O)[nH]c1=O", "cells": "MOLT-4", "strain": "IIIB", "result": "0.006 µM"}
{"structure": "CC(C)(C)NC(=O)[C@@H]1CN(Cc2cccnc2)CCN1C[C@@H](O)C[C@@H](Cc1ccccc1)C(=O)N[C@H]1c2ccccc2C[C@H]1O", "cells": "PM1", "strain": "Z2Z6", "result": "0.2 µM"}
{"structure": "CC(=O)c1ccc(C)cc1NC(C(N)=O)c1c(Cl)cccc1Cl", "cells": "MT-4", "strain": "IIIB", "result": "0.0064 µM"}
{"structure": "C(CCC1CNCCNCCCNCCNC1)CCC1CNCCNCCCNCCNC1", "cells": "MT-4", "conditions": "4 d", "strain": "IIIB", "result": "0.29 µM"}
{"structure": "Cc1cn([C@H]2C[C@H](N=[N+]=[N-])[C@@H](CO)O2)c(=O)[nH]c1=O", "cells": "CEM", "strain": "IIIB", "result": "<0.005 µg/mL"}
{"structure": "CCOCn1c([Se]c2ccccc2)c(CC)c(=O)[nH]c1=O", "cells": "MT-2", "strain": "IIIB", "result": "0.1 µM"}
{"structure": "CC(=O)Oc1ccc(COP(=O)(OC[C@@H]2C[C@@H](N=[N+]=[N-])[C@H](n3cc(C)c(=O)[nH]c3=O)O2)OC[C@H]2O[C@@H](n3cc(C)c(=O)[nH]c3=O)C[C@@H]2N=[N+]=[N-])cc1", "cells": "C8166", "strain": "IIIB", "result": "0.003 µM"}
{"structure": "C1CNCCNCC(CCCC2CNCCNCCCNCCNC2)CNCCNC1", "cells": "MT-4", "conditions": "5 d", "strain": "IIIB", "result": "0.12 µM"}
{"structure": "CCCN(C)C(=O)Oc1nsnc1-c1c(Cl)ccc(C(N)=O)c1Cl", "cells": "MT-4", "strain": "IIIB", "result": "2.9 µM"}
{"structure": "CN(C)c1ccc(CNC(=O)[C@@H](NC(=O)c2ccccc2-c2ccccc2)[C@@H]2N[C@@H](C(=O)NCCNC(=O)[C@@H]3N[C@@H]([C@H](NC(=O)c4ccccc4-c4ccccc4)C(=O)NCc4ccc(N(C)C)cc4)SC3(C)C)C(C)(C)S2)cc1", "cells": "MT-4", "strain": "RF", "result": "0.01 µM"}
{"structure": "COC(=O)[C@H](CO[C@H]1O[C@H](C2COC(C)(C)O2)[C@@H]2OC(C)(C)O[C@H]12)NC(=O)[C@H](CCSC)NC(=O)COc1ccc2ccccc2c1", "cells": "MT-4", "strain": "IIIB", "result": ">75 µg/mL"}
{"structure": "CCCc1cc(=O)oc2c3c(c4c(c12)OC(C)(C)C=C4)OC(C)(C)[C@H](C)[C@@H]3O", "cells": "CEM + CEM-SS", "strain": "IIIB", "result": ">21.3 µM"}
{"structure": "CCCC(=O)Oc1ccc(COP(=O)(OC[C@H]2CC[C@@H](n3cnc4c(=O)[nH]cnc43)O2)OC[C@H]2O[C@@H](n3cc(C)c(=O)[nH]c3=O)C[C@@H]2N=[N+]=[N-])cc1", "cells": "C8166", "strain": "IIIB", "result": "0.032 µM"}
{"structure": "Cc1cn([C@H]2C[C@H](N=[N+]=[N-])[C@@H](CO)O2)c(=O)[nH]c1=O", "cells": "MT-4", "strain": "IIIB", "result": "0.017 µM"}
{"structure": "CCCc1cc(=O)oc2c3c(c4c(c12)OC(C)(C)C=C4)O[C@@H](C)[C@H](C)[C@H]3O", "cells": "MT-2", "strain": "H112-2", "result": ">2.5 µM"}
{"structure": "O=C(O)P(=O)(O)O", "strain": "IIIB", "result": "95.1 µM"}
{"structure": "Cc1cn([C@@H]2C[C@@H](N=[N+]=[N-])[C@H](COP(=O)(OCc3ccc(OC(=O)C(C)(C)C)cc3)OC[C@H]3O[C@@H](n4cc(C)c(=O)[nH]c4=O)C[C@@H]3N=[N+]=[N-])O2)c(=O)[nH]c1=O", "cells": "C8166", "strain": "111B", "result": "0.003 µM"}
{"structure": "CCOCn1c(Cc2ccccc2)c(C(C)C)c(=O)[nH]c1=O", "mutations": "RT-Y181C", "strain": "HXB2", "result": "3.8 µM"}
{"structure": "C1CNCCNCCCNCCNC1", "cells": "MT-4", "strain": "IIIB", "result": "420 µM"}
{"structure": "CCCN(C)C(=O)Oc1nsnc1-c1c(Cl)ccc(N)c1Cl", "cells": "U-937", "strain": "IIIB", "result": "0.0069 µM"}
{"structure": "COC(=O)[C@H](CO)NC(=O)[C@H](CCSC)NC(=O)COc1ccc2ccccc2c1", "cells": "MT-4", "strain": "IIIB", "result": ">100 µg/mL"}
{"structure": "O=c1[nH]cnc2c1ncn2[C@H]1CC[C@@H](CO)O1", "cells": "C8166", "strain": "IIIB", "result": "0.8 µM"}
{"structure": "C=CCN1Cc2cccc3[nH]c(=O)n(c23)CC1C", "cells": "MT-4", "strain": "IIIB", "result": "62 µM"}
{"structure": "COC(=O)[C@H](CO)NC(=O)[C@H](CO)NC(=O)COc1ccc2ccccc2c1", "cells": "MT-4", "strain": "IIIB", "result": ">100 µg/mL"}
{"structure": "CC(C)=CCN1Cc2cccc3[nH]c(=S)n(c23)C[C@@H]1C", "cells": "MT-2", "strain": "IIIB", "result": "0.6 µM"}
{"structure": "O=C1N(c2ccncc2)[C@H](Cc2ccccc2)[C@H](O)CN(Cc2ccccc2)N1c1ccncc1", "cells": "MT-4", "strain": "IIIB", "result": "5.8 µM"}
{"structure": "CCOCn1c(Sc2ccccc2)c(C)c(=O)[nH]c1=O", "cells": "MT-2", "strain": "IIIB", "result": "1.3 µM"}
{"structure": "Nc1ccn([C@H]2CC[C@@H](CO)O2)c(=O)n1", "cells": "MT-4", "strain": "HE", "result": "0.019 µM"}
{"structure": "COc1ccnc(Nc2ccc(Cl)c(Oc3ccccc3C)c2)n1", "cells": "MT-2", "strain": "IIIB", "result": ">13 µM"}
{"structure": "CCOC(=O)[C@H](Cc1ccc(O)cc1)NC(=O)[C@@H](O)[C@H](O)C(=O)N[C@@H](Cc1ccc(O)cc1)C(=O)OCC", "cells": "PM1", "strain": "Z2Z6", "result": "50 µM"}
{"structure": "Nc1ccn([C@H]2CC[C@@H](CO)O2)c(=O)n1", "cells": "MT-2", "strain": "RF", "result": "~0.05 µM"}
{"structure": "COC(=O)[C@H](C)NC(=O)CNC(=O)COc1ccc2ccccc2c1", "cells": "MT-4", "strain": "IIIB", "result": ">59 µg/mL"}
{"structure": "CN(C)c1ccc(CNC(=O)[C@@H](NC(=O)Cc2ccccc2)[C@@H]2N[C@@H](C(=O)NCCNC(=O)[C@@H]3N[C@@H]([C@H](NC(=O)Cc4ccccc4)C(=O)NCc4ccc(N(C)C)cc4)SC3(C)C)C(C)(C)S2)cc1", "cells": "MT-4", "strain": "RF", "result": "0.01 µM"}
{"structure": "C1CNCCNCC(CCOCCOCCC2CNCCNCCCNCCNC2)CNCCNC1", "cells": "MT-4", "conditions": "4 d", "strain": "IIIB", "result": "3.2 µM"}

A second listing of 4 rows from above:

| structure | cells | mutations | conditions | strain | result |
|---|---|---|---|---|---|
| CCCc1cc(=O)oc2c3c(c4c(c12)OC(C)(C)C=C4)O[C@@H](C)[C@H](C)[C@H]3O | MT-2 | - | - | H112-2 | >2.5 µM |
| CCCN(C)C(=O)Oc1nsnc1-c1c(Cl)ccc(C(N)=O)c1Cl | MT-4 | - | - | IIIB | 2.9 µM |
| COc1ccnc(Nc2ccc(Cl)c(Oc3ccccc3C)c2)n1 | MT-2 | - | - | IIIB | >13 µM |
| COC(=O)[C@H](CCSC)NC(=O)CNC(=O)COc1ccc2ccccc2c1 | MT-4 | - | - | IIIB | >100 µg/mL |

Rows are shuffled and stem from different studies. ECn: concentration that inhibits the pathogen or its effect by n%.